Assay results reported in patent US20100029568A1, “TIGHTER-BINDING C-PEPTIDE INHIBITORS OF HIV-1 ENTRY” (priority 2007, published 2010).

Columns and labels:
[1] = test system: HIV-1 pseudotyped with wild type Env from strain HXB2 (HOS-CD4 target cells); type: cell-based
Protocol: All viral infectivity and cell-cell fusion experiments were performed as described in Chan, D., et. al., 1998, Proc. Natl. Acad. Sci. U.S.A. 95, 15613-15617. Briefly, the potency of C-peptides in inhibiting viral infection was determined using recombinant luciferase-expressing HIV-1 as described by Malashkevich, V. N., et. al., 1998, Proc. Natl. Acad. Sci. USA 95, 9134-9139. To produce virus, 293T cells were co-transfected with the envelope-deficient HIV-1 genome NL43LucR-E-(21) and the HXB2 gp160 expression vector pCMVHXB2 gp160 using calcium phosphate. Viral supernatants were cleared of cellular debris by low-speed centrifugation and used to infect HOS-CD4/Fusin cells (N. Landau, National Institutes of Health AIDS Reagent Program) in the presence of varying concentrations of C-peptide, ranging from 0 to 200 nM. Cells were harvested 48 hr postinfection, and luciferase activity was measured in a Wallac (Gaithersburg, Md.) AutoLumat LB953 luminometer. The IC50 is the peptide concentration that results in a 50% decrease in activity relative to control samples lacking peptide. For each peptide, data from three experiments were fit to a Langmuir equation [y=k/(1+([peptide]/IC50)], where y=luciferase activity and k is a scaling constant] to obtain the IC50 values.
HOS-CD4-Les cells were infected with HIV-1 pseudotyped with Env from HXB2 HIV-1 strain of either the wild type sequence or one of three variant sequences that confer resistance to C-peptides. The sequences of Res1 and Res2 Env, defined in FIG. 1, contain mutations in the gp41 HR1 region that decrease C-peptide binding affinity. The sequence of Res3 contains a mutation in the gp41 HR2 region (N637K) that confers partial resistance by enhancing the rate of viral membrane fusion. […]
The C37 variants generated were able to overcome resistance conferred by the HR1 region mutations. […] Infection took place in the presence and absence of C37 (FIG. 2A), C37-KYI (FIG. 2B) or (C37-GC)2 (FIG. 2C) and quantified by the expression of a luciferase-reporter construct. […]

[2] = molecular target: T1, N36, structural mimic of the gp41 HR1 region (Human immunodeficiency virus type 1 group M subtype B, UniProt P04578); type: binding, HIV-1
T1 construct: a structural mimic of the gp41 HR1 region, the N-peptide known as N36
Text: In FIG. 2, viruses pseudotyped with either wild type Env (closed squares) or V549E mutant Env (Res1, closed circles) from strain HXB2 were utilized to infect HOS-CD4-Les target cells. […] The Hr1 and HR2 regions of three gp41 form an intermediate structure called the trimer-of-hairpins which is necessary for the viral entry process and membrane fusion with the host membrane.

## CC[C@H](C)[C@H](NC(=O)[C@H](CC(C)C)NC(=O)[C@H](CO)NC(=O)[C@H](Cc1c[nH]cn1)NC(=O)[C@@H](NC(=O)[C@H](CC(C)C)NC(=O)[C@H](CO)NC(=O)[C@@H](NC(=O)[C@H](Cc1ccc(O)cc1)NC(=O)[C@H](CCCCN)NC(=O)[C@H](CC(N)=O)NC(=O)[C@@H](NC(=O)[C@H](CCC(=O)O)NC(=O)[C@H](CCCNC(=N)N)NC(=O)[C@H](CC(=O)O)NC(=O)[C@H](Cc1c[nH]c2ccccc12)NC(=O)[C@H](CCC(=O)O)NC(=O)[C@H](CCSC)NC(=O)[C@H](Cc1c[nH]c2ccccc12)NC(=O)[C@@H](NC(=O)[C@@H](NC(=O)[C@H](Cc1c[nH]cn1)NC(=O)CNC(=O)CN)[C@@H](C)O)[C@@H](C)O)[C@@H](C)CC)[C@@H](C)CC)[C@@H](C)CC)C(=O)N[C@@H](CCC(=O)O)C(=O)N[C@@H](CCC(=O)O)C(=O)N[C@@H](CO)C(=O)N[C@@H](CCC(N)=O)C(=O)N[C@@H](CC(N)=O)C(=O)N[C@@H](CCC(N)=O)C(=O)N[C@@H](CCC(N)=O)C(=O)N[C@@H](CCC(=O)O)C(=O)N[C@@H](CCCCN)C(=O)N[C@@H](CC(N)=O)C(=O)N[C@@H](CCC(=O)O)C(=O)N[C@@H](CCC(N)=O)C(=O)N[C@@H](CCC(=O)O)C(=O)N[C@@H](CC(C)C)C(=O)N[C@@H](CC(C)C)C(=O)NCC(=O)NCC(=O)N[C@@H](Cc1c[nH]cn1)C(=O)N[C@@H](Cc1c[nH]cn1)C(=O)N[C@@H](Cc1c[nH]cn1)C(=O)N[C@@H](Cc1c[nH]cn1)C(=O)N[C@@H](Cc1c[nH]cn1)C(=O)N[C@@H](Cc1c[nH]cn1)C(=O)O [C37-KYI]
[1]; Table 1, HXB2 wild type Env, HOS-CD4-Les cells, mean of 2 or 3 titrations, read-out: IC50 (±SEM), WT Env
  IC50: 1 nM
[1]; Table 2, read-out: IC50, WT HXB2
  IC50: 1 ± 0.1 nM
[1]; read-out: IC50 against viruses pseudotyped with EnvHXB2
  IC50: ~1 nM
[2]
  fold lower Kd than wild type C37: more than 20 fold

Where two headings read alike, the source gives them in different places.
